Pooled drug test results. Numbers come from NIAID ChemDB, via PubChem.

Common to all: growth or infection tests; agent: HIV-1

An empty or dashed field is not shown. Conditions beyond the fields shown may differ between rows. Two numbers with a dash give a range or band. ECn: concentration that inhibits the pathogen or its effect by n%.

{"SMILES": "O=C(CNC(=O)COc1ccccc1)NCc1ccc(C(=O)N2CCCCC2)cc1", "endpoint": "EC50", "read by": "RT activity", "strain": "G-3", "cells": "PBMC", "value": "18.9 µM"}
{"SMILES": "CC1CN(C(=O)c2ccccc2)CCN1C(C#N)C(=O)c1ccc2cc(Br)ccc2n1", "endpoint": "EC50", "read by": "luciferase / reporter gene", "cells": "HeLa", "value": "<1 µM"}
{"SMILES": "CC(C)OC(=O)c1cc(NC(=S)OC(C)C)ccc1Cl", "mutations": "RT-V106A", "endpoint": "EC50", "read by": "syncytia", "strain": "IIIB", "cells": "CEM", "value": "2.06 µM"}
{"SMILES": "Cc1cc(-c2ccc(C#N)cc2)cc(C)c1Oc1ccnc(S(=O)(=O)CC(=O)Nc2ccc(Cl)cc2)n1", "mutations": "K103N", "endpoint": "EC50", "read by": "MTT", "strain": "IIIB", "cells": "MT-4", "value": "0.056 µM"}
{"SMILES": "Nc1ccc(S(=O)(=O)N(Cc2ccccc2)CC(F)(F)C(=O)[C@@H](Cc2ccccc2)NC(=O)O[C@H]2CCOC2)cc1", "endpoint": "EC90", "read by": "p24", "strain": "IIIB", "cells": "CEM", "value": "1 µM"}
{"SMILES": "Cc1cc(-c2ccc(C#N)cc2)cc(C)c1Oc1ccnc(S(=O)(=O)CC(=O)Nc2ccc(F)cc2)n1", "mutations": "L100I", "endpoint": "EC50", "read by": "MTT", "strain": "IIIB", "cells": "MT-4", "value": "0.177 µM"}
{"SMILES": "CC(C)CN(C[C@@H](O)[C@H](Cc1ccccc1)NC(=O)O[C@H]1CO[C@H]2OCC[C@H]21)S(=O)(=O)c1ccc(N)c(NCc2ccncc2)c1", "endpoint": "EC50", "read by": "GFP", "strain": "IIIB WT", "cells": "MT-4", "value": "0.275 µM"}
{"SMILES": "C=C(C)[C@@H]1CC[C@]2(C(=O)NCCCCCCCC(=O)N[C@@H](CC(C)C)[C@@H](O)CC(=O)O)CC[C@]3(C)[C@H](CC[C@@H]4[C@@]5(C)CC[C@H](O)C(C)(C)[C@@H]5CC[C@]43C)[C@@H]12", "endpoint": "EC50", "read by": "syncytia", "strain": "LN7 (H91L)", "cells": "HeLa P4 + HeLa", "value": "<10 µM"}
{"SMILES": "CCc1c(Cc2cc(C)cc(C)c2)n(COCCCc2ccccc2)c(=O)[nH]c1=O", "mutations": "K103R/V179D/P225H", "endpoint": "EC50", "read by": "MTT", "strain": "EFVR", "cells": "MT-4", "value": ">43 µM"}
{"SMILES": "CC(C)CN(C[C@@H](O)[C@H](Cc1ccccc1)NC(=O)O[C@H]1CO[C@H]2OCC[C@H]21)S(=O)(=O)c1ccc(N)c(NCCO)c1", "endpoint": "EC50", "read by": "GFP", "strain": "IIIB WT", "cells": "MT-4", "value": "0.275 µM"}
{"SMILES": "Cc1cc(C#N)cc(C)c1Oc1ccnc(S(=O)(=O)CC(=O)Nc2ccc(C#N)cc2)n1", "endpoint": "EC50", "read by": "MTT", "strain": "RES056", "cells": "MT-4", "value": "0.425 µM"}
{"SMILES": "Cn1cc(NC(=O)c2cc([N+](=O)[O-])cn2C)cc1C(=O)Nc1cc(S(=O)(=O)O)c2cc(S(=O)(=O)O)cc(S(=O)(=O)O)c2c1", "endpoint": "EC50", "read by": "cytopathic effect / XTT", "strain": "RF", "cells": "CEM + CEM-SS", "value": "256 µM"}
{"SMILES": "CCc1c(Cc2ccc(C)cc2)n(COCCCc2ccccc2)c(=O)[nH]c1=O", "mutations": "K103N/Y181C", "endpoint": "EC50", "read by": "MTT", "strain": "A17", "cells": "MT-4", "value": ">43 µM"}
{"SMILES": "Cc1cc(-c2ccc(C#N)cc2)cc(C)c1Oc1ccnc(S(=O)(=O)C(C)C(=O)Nc2ccc(Cl)cc2)n1", "endpoint": "EC50", "read by": "MTT", "strain": "IIIB", "cells": "MT-4", "value": "0.025 µM"}
{"SMILES": "N#Cc1ccc(Nc2nc(Oc3c(F)cc(-c4ccc(C#N)cc4)cc3F)c3sccc3n2)cc1", "endpoint": "EC50", "read by": "MTT", "strain": "RES056", "cells": "MT-4", "value": ">78.6 µM"}
{"SMILES": "Nc1nc(NC2CC2)c2ncn([C@H]3C=C[C@@H](CO)C3)c2n1", "mutations": "RT-M184V", "endpoint": "EC50", "read by": "p24", "strain": "XM-M184V", "cells": "PBMC", "value": "<7 µM"}
{"SMILES": "COc1cc(-c2ccc(N=Nc3ccc4c(S(=O)(=O)O)cc(S(=O)(=O)O)c(N)c4c3O)c(OC)c2)ccc1N=Nc1ccc2c(S(=O)(=O)O)cc(S(=O)(=O)O)c(N)c2c1O", "endpoint": "EC50", "read by": "RT activity", "strain": "RF", "cells": "CEM + CEM-SS", "value": "1.7 µM"}
{"SMILES": "COc1ccc2nc(C(=N)C(C#N)N3CCN(C(=O)c4ccccc4)CC3C)ccc2c1", "endpoint": "EC50", "read by": "luciferase / reporter gene", "cells": "HeLa", "value": ">0.5 µM"}
{"SMILES": "COc1ccc(S(=O)(=O)N(CC(C)C)C[C@@H](O)CCN(CC2CCCC2)S(=O)(=O)c2ccc(O)cc2)cc1", "endpoint": "EC50", "read by": "p24", "strain": "IIIB", "cells": "CEM", "value": "<1 µM"}
{"SMILES": "Cc1cc(-c2ccc(C#N)cc2)cc(Cl)c1Oc1nc(Nc2ccc(C#N)cc2)nc2ccsc12", "endpoint": "EC50", "read by": "MTT", "strain": "RES056", "cells": "MT-4", "value": "0.148 µM"}
{"SMILES": "COCCNc1cc(S(=O)(=O)N(CC(C)C)C[C@@H](O)[C@H](Cc2ccccc2)NC(=O)O[C@H]2CO[C@H]3OCC[C@H]32)ccc1N", "endpoint": "EC50", "read by": "GFP", "strain": "IIIB WT", "cells": "MT-4", "value": "0.0055 µM"}
{"SMILES": "N#Cc1ccc(Nc2nc(Oc3ccc(-c4ccc(C#N)cc4)c(F)c3F)c3sccc3n2)cc1", "mutations": "E138K", "endpoint": "EC50", "read by": "MTT", "strain": "IIIB", "cells": "MT-4", "value": "0.017 µM"}
{"SMILES": "CC(C)=CCOc1cc(NC(=S)c2ccoc2C)ccc1Cl", "mutations": "RT-Y188H", "endpoint": "EC50", "read by": "syncytia", "strain": "IIIB", "cells": "CEM", "value": "0.045 µM"}
{"SMILES": "CC1CN(C(=O)c2ccccc2)CCN1C(=O)[C@H](O)c1ccc2ccccc2c1", "endpoint": "EC50", "read by": "luciferase / reporter gene", "cells": "HeLa", "value": "1–5 µM"}
{"SMILES": "CCc1c(Cc2ccc(OC)c(OC)c2)n(COCCc2ccccc2)c(=O)[nH]c1=O", "mutations": "K103N/Y181C", "endpoint": "EC50", "read by": "MTT", "strain": "A17", "cells": "MT-4", "value": ">73 µM"}
{"SMILES": "C[C@H]1CN(C(=O)c2ccccc2)CCN1C(=O)C(=O)c1ccc2ccccc2n1", "endpoint": "EC50", "read by": "luciferase / reporter gene", "cells": "HeLa", "value": "<1 µM"}
{"SMILES": "CCc1c(Cc2ccc(OC)c(OC)c2)n(COCC2CC2)c(=O)[nH]c1=O", "mutations": "K103R/V179D/P225H", "endpoint": "EC50", "read by": "MTT", "strain": "EFVR", "cells": "MT-4", "value": ">100 µM"}
{"SMILES": "Cn1cc([N+](=O)[O-])cc1C(=O)Nc1cc(C(=O)Nc2ccc(S(=O)(=O)O)c3cc(S(=O)(=O)O)ccc23)n(C)c1", "endpoint": "EC50", "read by": "cytopathic effect / XTT", "strain": "RF", "cells": "CEM + CEM-SS", "value": ">200 µM"}
{"SMILES": "CCc1c(Cc2cc(C)cc(C)c2)n(COCC2CC2)c(=O)[nH]c1=O", "mutations": "K103R/V179D/P225H", "endpoint": "EC50", "read by": "MTT", "strain": "EFVR", "cells": "MT-4", "value": ">51 µM"}
{"SMILES": "COc1ccc2nc(C(=O)C(=O)N3CCN(C(=O)c4ccccc4)CC3C)ccc2c1", "endpoint": "EC50", "read by": "luciferase / reporter gene", "cells": "HeLa", "value": "<1 µM"}
{"SMILES": "O=C(c1ccccc1)N(CCc1ccccc1)C[C@H](O)CN(CC1CCCC1)S(=O)(=O)c1ccccn1", "endpoint": "EC90", "read by": "p24", "strain": "IIIB", "cells": "CEM", "value": "1 µM"}
{"SMILES": "CCc1c(Cc2ccc(OC)c(OC)c2)n(COCCCc2ccccc2)c(=O)[nH]c1=O", "mutations": "Y181C", "endpoint": "EC50", "read by": "MTT", "strain": "N119", "cells": "MT-4", "value": ">38 µM"}
{"SMILES": "COc1cccc2nc(C(=O)C(=O)N3CCN(C(=O)c4ccccc4)CC3C)ccc12", "endpoint": "EC50", "read by": "luciferase / reporter gene", "cells": "HeLa", "value": "<1 µM"}
{"SMILES": "CC(C)CN(C[C@@H](O)[C@H](Cc1ccccc1)NC(=O)O[C@H]1CO[C@H]2OCC[C@H]21)S(=O)(=O)c1ccc(N)c(NCCc2cncn2CC(C)C)c1", "endpoint": "EC50", "read by": "GFP", "strain": "IIIB WT", "cells": "MT-4", "value": "0.288 µM"}
{"SMILES": "CC(C)CN(CC(O)CCN(CC1CCCC1)S(=O)(=O)c1ccc(O)cc1)S(=O)(=O)c1ccccc1", "endpoint": "EC90", "read by": "p24", "strain": "IIIB", "cells": "CEM", "value": "1 µM"}
{"SMILES": "CC1CN(C(=O)c2ccccc2)CCN1C(=O)[C@@H](O)c1ccc2ccccc2c1", "endpoint": "EC50", "read by": "luciferase / reporter gene", "cells": "HeLa", "value": "1–5 µM"}
{"SMILES": "CC(C)c1ncc(CS(=O)(=O)N(CC2CCCC2)C[C@@H](O)CN(CCc2ccccc2)C(=O)c2ccccc2)s1", "endpoint": "EC90", "read by": "p24", "strain": "IIIB", "cells": "CEM", "value": "1 µM"}
{"SMILES": "Cc1cc(-c2ccc(C#N)cc2)cc(C)c1Oc1ccnc(S(=O)(=O)C(C)C(=O)Nc2ccc(C#N)cc2)n1", "mutations": "E138K", "endpoint": "EC50", "read by": "MTT", "strain": "IIIB", "cells": "MT-4", "value": "0.041 µM"}
{"SMILES": "Cn1cc(NC(=O)Nc2cc(C(=O)Nc3cc(C(=O)Nc4ccc(P(=O)(O)O)c5cc(P(=O)(O)O)ccc45)n(C)c3)n(C)c2)cc1C(=O)Nc1cc(C(=O)Nc2ccc(P(=O)(O)O)c3cc(P(=O)(O)O)ccc23)n(C)c1", "endpoint": "EC50", "read by": "cytopathic effect / XTT", "strain": "A17", "cells": "CEM + CEM-SS", "value": "1.3 µM"}
{"SMILES": "Cc1nnc(-c2cccc(-c3cccc(C(=O)N4CCCCC4)c3)c2)o1", "endpoint": "EC50", "conditions": "pseudotyped", "read by": "luminescence", "cells": "TZM-bl", "value": ">30 µM"}
{"SMILES": "CCc1c(Cc2cc(C)cc(C)c2)n(COCCc2ccccc2)c(=O)[nH]c1=O", "mutations": "Y181C", "endpoint": "EC50", "read by": "MTT", "strain": "N119", "cells": "MT-4", "value": "5.6 µM"}
{"SMILES": "COc1ccc(S(=O)(=O)N(CC[C@@H](O)CN2CCCC[C@H]2C(=O)NC(C)(C)C)CC(C)C)cc1", "endpoint": "EC50", "read by": "p24", "strain": "IIIB", "cells": "CEM", "value": "<1 µM"}
{"SMILES": "Cc1cc(-c2ccc(C#N)cc2)cc(C)c1Oc1ccnc(S(=O)(=O)CC(=O)NC(C)c2ccc(F)cc2)n1", "endpoint": "EC50", "read by": "MTT", "strain": "IIIB", "cells": "MT-4", "value": ">4.56 µM"}
{"SMILES": "Nc1nc(=O)n([C@H]2C=C[C@@H](CO)O2)cc1F", "mutations": "RT-K65R L74V M184V Y115F", "endpoint": "EC90", "read by": "p24", "strain": "XM-ABC-resistant", "cells": "MT-4", "value": "14 µM"}
{"SMILES": "Cc1cc(-c2ccc(C#N)cc2)cc(C)c1Oc1ccnc(S(=O)(=O)CC(=O)Nc2ccc(Br)cc2)n1", "mutations": "Y181C", "endpoint": "EC50", "read by": "MTT", "strain": "IIIB", "cells": "MT-4", "value": "0.114 µM"}
{"SMILES": "Cc1cc(C#N)cc(C(=O)c2ccccc2OCC(=O)Nc2ccc(S(N)(=O)=O)cc2C)c1", "endpoint": "EC50", "read by": "β-galactosidase", "strain": "WT", "cells": "HeLa MAGI + HeLa", "value": "~0.0005 µM"}
{"SMILES": "Cn1cc(NC(=O)Nc2cc(C(=O)Nc3cc(C(=O)Nc4cc(S(=O)(=O)O)c5cc(S(=O)(=O)O)cc(S(=O)(=O)O)c5c4)n(C)c3)n(C)c2)cc1C(=O)Nc1cc(C(=O)Nc2cc(S(=O)(=O)O)c3cc(S(=O)(=O)O)cc(S(=O)(=O)O)c3c2)n(C)c1", "endpoint": "EC50", "read by": "cytopathic effect / XTT", "strain": "N119", "cells": "CEM + CEM-SS", "value": "0.4 µM"}
{"SMILES": "Cc1cc(/C=C/C#N)cc(C)c1Oc1ccnc(S(=O)(=O)CC(=O)Nc2ccc(Cl)cc2)n1", "mutations": "F227L V106A", "endpoint": "EC50", "read by": "MTT", "strain": "IIIB", "cells": "MT-4", "value": "0.76 µM"}

For reference, 6 entries again:

SMILES	mutations	endpoint	conditions	read by	strain	cells	value
Cn1cc(NC(=O)Nc2cc(C(=O)Nc3cc(C(=O)Nc4ccc(P(=O)(O)O)c5cc(P(=O)(O)O)ccc45)n(C)c3)n(C)c2)cc1C(=O)Nc1cc(C(=O)Nc2ccc(P(=O)(O)O)c3cc(P(=O)(O)O)ccc23)n(C)c1	-	EC50	-	cytopathic effect / XTT	A17	CEM + CEM-SS	1.3 µM
O=C(c1ccccc1)N(CCc1ccccc1)C[C@H](O)CN(CC1CCCC1)S(=O)(=O)c1ccccn1	-	EC90	-	p24	IIIB	CEM	1 µM
CCc1c(Cc2ccc(OC)c(OC)c2)n(COCC2CC2)c(=O)[nH]c1=O	K103R/V179D/P225H	EC50	-	MTT	EFVR	MT-4	>100 µM
Cn1cc(NC(=O)c2cc([N+](=O)[O-])cn2C)cc1C(=O)Nc1cc(S(=O)(=O)O)c2cc(S(=O)(=O)O)cc(S(=O)(=O)O)c2c1	-	EC50	-	cytopathic effect / XTT	RF	CEM + CEM-SS	256 µM
CC(C)CN(C[C@@H](O)[C@H](Cc1ccccc1)NC(=O)O[C@H]1CO[C@H]2OCC[C@H]21)S(=O)(=O)c1ccc(N)c(NCCO)c1	-	EC50	-	GFP	IIIB WT	MT-4	0.275 µM
Cc1cc(/C=C/C#N)cc(C)c1Oc1ccnc(S(=O)(=O)CC(=O)Nc2ccc(Cl)cc2)n1	F227L V106A	EC50	-	MTT	IIIB	MT-4	0.76 µM